Results of unrelated studies side by side (data: NIAID ChemDB).

Common to all: growth or infection tests; agent: HIV-1; cell line: PBMC; read-out: EC50

ECn: concentration that inhibits the pathogen or its effect by n%. Blank or dashed fields: not listed here. Lines come from different laboratories, so protocols vary.

SMILES	strain or isolate	mutations	read by	setting	result
COC(=O)[C@H](C)NP(=O)(OC[C@@H]1C=C[C@H](n2cc(C)c(=O)[nH]c2=O)O1)Oc1ccc(Br)cc1	X267-1 NRTI resistant	RT-M41L L74V L210W T215Y	p24	-	0.0002 µM
O=c1[nH]cnc2c1ncn2[C@H]1CC[C@@H](CO)O1	Isolate 2441	-	p24	-	12.7 µM
CC(C)CN(C[C@@H](O)[C@H](Cc1ccccc1)NC(=O)O[C@H]1CCOC1)S(=O)(=O)c1ccc(N)cc1	ERS104PRE(PR-L63P) Clinical isolate	PR-L63P	p24	-	0.025 µM
CCCc1cc(=O)oc2c3c(c4c(c12)OC(C)(C)C=C4)O[C@@H](C)[C@H](C)[C@@H]3O	CLADE A	-	RT activity	-	0.1 µM
S=C(NCCC1=CCCCC1)Nc1ccc(Cl)cn1	RT-MDR(RT-V106A)	RT-V106A	-	-	0.001 µM
CN[C@@H]1[C@H](O[C@@H]2OC[C@@H](O)[C@H](O)[C@H]2O)[C@@H](O)[C@H](O[C@H]2c3cc(C)c(C(=O)N[C@H](C)C(=O)O)c(O)c3-c3c(cc4c(c3O)C(=O)c3cc(OC)cc(O)c3C4=O)[C@@H]2O)O[C@@H]1C	ETH2220 R5 CLADE C	-	p24	-	8.7 µg/mL
S=C(NCCC1=CCCCC1)Nc1ccc(Br)cn1	IIIB	-	-	-	0.003 µM
O=c1[nH]cnc2c1ncn2[C@H]1CC[C@@H](CO)O1	H9/HTLV-IIIB	-	p24	-	2.2 µM
CC[C@@H](c1ccc(C(F)(F)F)cc1)N1CCN(C2(C)CCN(C(=O)c3c(C)ncnc3C)CC2)C[C@@H]1C	301657 Clinical isolates	-	-	-	<0.016 µM
O=C1N(Cc2ccc(CO)cc2)[C@H](Cc2ccccc2)[C@H](O)[C@@H](O)[C@@H](Cc2ccccc2)N1Cc1ccc(CO)cc1	1 clinical isolate	-	p24	-	0.07 µM
CCC[C@@]1(CCc2ccccc2)CC(O)=C([C@H](CC)c2cccc(NS(=O)(=O)c3ccc(C(F)(F)F)cn3)c2)C(=O)O1	Isolate N. Amer 4	-	p24	-	<0.15 µM
S=C(NCCC1=CCCCC1)Nc1ccc(Br)cn1	IIIB	-	RT activity	-	0.003 µM
CC(C)=CCN1Cc2cc(Cl)cc3[nH]c(=S)n(c23)C[C@@H]1C	MVP5180 (RT A98G K103R)	RT-A98G K103R	-	-	>6.25 µM
Cc1ccc(-c2ccc3c(c2)C=C(C(=O)Nc2ccc(C[N+](C)(C)C4CCOCC4)cc2)CCC3)cc1	NL4-3 X4	-	antigen	-	>1 µg/mL
Cc1cn([C@H]2C[C@H](N=[N+]=[N-])[C@@H](CO)O2)c(=O)[nH]c1=O	G190-6 NRTI resistant	RT-M41L D67N K70R T215Y K219Q	p24	-	>3.2 µM
CC(C)(C)NC(=O)[C@@H]1CN(Cc2cccnc2)CCN1C[C@@H](O)C[C@@H](Cc1ccccc1)C(=O)N[C@H]1c2ccccc2C[C@H]1O	LAI Laboratory isolate	-	p24	-	0.015 µM
S=C(NCCc1cccs1)Nc1ccc(Br)cn1	IIIB	-	p24	-	0.014 µM
Cc1cc(C#N)cc(C)c1Oc1nc(Nc2ccc(C#N)cc2)nc(N)c1Br	35764-2	-	absorbance	-	0.0007 µM
CC(C)CN(C[C@@H](O)[C@H](Cc1ccc(F)cc1)NC(=O)O[C@H]1CCO[C@H]2OCC[C@H]21)S(=O)(=O)c1ccc2nc(NC(C)C)sc2c1	92UG029	-	p24 / luminescence	-	0.0032 µM
CCC(=O)c1ccc(F)c([C@@H]2C[C@@H]2NC(=O)Nc2ccc(C#N)cn2)c1O	BaL	-	absorbance	-	0.0019 µM
c1cc(CN2CCCNCCNCCCNCC2)ccc1CN1CCCNCCNCCCNCC1	IIIB X4	-	p24	-	0.0685 µM
CC(C)Nc1cccnc1N1CCN(C(=O)c2cc3cc(NS(C)(=O)=O)ccc3[nH]2)CC1	IIIB	-	-	-	0.009 µM
Cc1cn([C@H]2C[C@H](N=[N+]=[N-])[C@@H](CO)O2)c(=O)[nH]c1=O	8848 CLADE C CLADE C	-	p24	-	0.033 µM
Cc1ccnc2c1NC(=O)c1cccnc1N2C1CC1	IIIB	-	-	-	0.034 µM
Cc1ccnc2c1NC(=O)c1cccnc1N2C1CC1	CLADE D	-	RT activity	-	0.1 µM
CC(C)c1nc(CN(C)C(=O)N[C@H](C(=O)N[C@@H](Cc2ccccc2)C[C@H](O)[C@H](Cc2ccccc2)NC(=O)OCc2cncs2)C(C)C)cs1	Clinical isolate	PR-L10I K43T M46L I54L L63P A71T V82A L90M Q92K	p24	-	>1 µM
Cc1cn([C@H]2C[C@H](N=[N+]=[N-])[C@@H](CO)O2)c(=O)[nH]c1=O	BCF03	RT-A98G Y181C	-	-	<0.01 µM
COc1ccc(S(=O)(=O)N(CC(C)C)C[C@@H](O)[C@H](Cc2ccccc2)NC(=O)O[C@H]2CO[C@H]3OCC[C@H]32)cc1	Clinical isolate	PR-L10I I15V E35D N37E K45R I54V L63P A71V V82T L90M I93L C95F	p24	-	0.001 µM
Cc1cn([C@H]2C[C@H](N=[N+]=[N-])[C@@H](CO)O2)c(=O)[nH]c1=O	CLADE E	-	RT activity	-	0.1 µM
Fc1ccccc1CCNC(=S)Nc1ccc(Br)cn1	IIIB	-	RT activity	-	<0.001 µM
CC(C)Nc1cccnc1N1CCN(C(=O)c2cc3cc(NS(C)(=O)=O)ccc3[nH]2)CC1	458 clinical isolates delavirdine-resistant	-	p24	-	<7.7 µM
c1cc(CN2CCCNCCNCCCNCC2)ccc1CN1CCCNCCNCCCNCC1	SW30 CLADE C R5X4	-	p24	-	<0.5 µM
CCC[C@@H](c1ccc(C(F)(F)F)cc1)N1CCN(C2(C)CCN(C(=O)c3c(C)ncnc3C)CC2)C[C@@H]1C	ADA-M Clinical isolates	-	-	-	<0.00003 µM
COC(=O)N[C@H](C(=O)N[C@@H](Cc1ccccc1)[C@@H](O)CN(Cc1ccc(-c2ccccn2)cc1)NC(=O)[C@@H](NC(=O)OC)C(C)(C)C)C(C)(C)C	Clinical isolate	L10I I15V K20R L24I M36I M46L I54V I62V L63P K70Q V82A L89M	p24 / luminescence	clinical isolate, multidrug-resistant	0.039 µM
COC(=O)[C@H](C)NP(=O)(OC[C@@H]1C=C[C@H](n2cc(C)c(=O)[nH]c2=O)O1)Oc1ccc(Br)cc1	X165-8 Clinical isolate ZDV-resistant	RT-D67N T69N K70R K103N Y181C T215F K219E	p24	-	0.013 µM
Nc1ccn([C@@H]2CS[C@H](CO)O2)c(=O)n1	NL4-3 WT	-	p24	-	0.01 µM
Cc1cn([C@H]2C[C@H](N=[N+]=[N-])[C@@H](CO)O2)c(=O)[nH]c1=O	T156-3 Clinical isolate ZDV-resistant	RT-M41L E44D D67N T69D L210W T215Y	p24	-	>3.2 µM
Cc1cn([C@H]2C[C@H](N=[N+]=[N-])[C@@H](CO)O2)c(=O)[nH]c1=O	ROJO	-	cytopathic effect / XTT	clinical isolate	0.01 µM
Nc1ccn([C@@H]2CS[C@H](CO)O2)c(=O)n1	56252-1 NRTI resistant recombinant	RT-T69K K70G V75I F77L F116Y Q151M M184V	p24	-	>10 µM
CCO/N=C(\c1ccc(Br)cc1)C1CCN(C2(C)CCN(C(=O)c3c(C)cc[n+]([O-])c3C)CC2)CC1	HJE155 R5 CLADE B	-	p24	-	0.0012 µM
O=c1[nH]cnc2c1ncn2[C@H]1CC[C@@H](CO)O1	BCF03	RT-A98G Y181C	-	-	1.2 µM
Cc1cn([C@H]2C[C@H](N=[N+]=[N-])[C@@H](CO)O2)c(=O)[nH]c1=O	VIHU (non-syncytium-inducing)	-	cytopathic effect / XTT	-	0.04 µM
Cc1cn([C@H]2C[C@H](N=[N+]=[N-])[C@@H](CO)O2)c(=O)[nH]c1=O	720	-	ELISA	-	0.01 µM
Nc1ccn([C@H]2CC[C@@H](CO)O2)c(=O)n1	Recombinant	RT-V75I F77L F116Y Q151M	p24	-	0.22 µM
CCCc1cc(=O)oc2c3c(c4c(c12)OC(C)(C)C=C4)O[C@H](C)[C@@H](C)[C@@H]3O	CLADE F	-	RT activity	-	0.04 µM

Again, the opening 5 rows:

SMILES,strain or isolate,mutations,read by,setting,result
COC(=O)[C@H](C)NP(=O)(OC[C@@H]1C=C[C@H](n2cc(C)c(=O)[nH]c2=O)O1)Oc1ccc(Br)cc1,X267-1 NRTI resistant,RT-M41L L74V L210W T215Y,p24,-,0.0002 µM
O=c1[nH]cnc2c1ncn2[C@H]1CC[C@@H](CO)O1,Isolate 2441,-,p24,-,12.7 µM
CC(C)CN(C[C@@H](O)[C@H](Cc1ccccc1)NC(=O)O[C@H]1CCOC1)S(=O)(=O)c1ccc(N)cc1,ERS104PRE(PR-L63P) Clinical isolate,PR-L63P,p24,-,0.025 µM
CCCc1cc(=O)oc2c3c(c4c(c12)OC(C)(C)C=C4)O[C@@H](C)[C@H](C)[C@@H]3O,CLADE A,-,RT activity,-,0.1 µM
S=C(NCCC1=CCCCC1)Nc1ccc(Cl)cn1,RT-MDR(RT-V106A),RT-V106A,-,-,0.001 µM